Experimental findings from paper PMC4959528, “SpoVG Is a Conserved RNA-Binding Protein That Regulates Listeria monocytogenes Lysozyme Resistance, Virulence, and Swarming Motility” are described below.

For the series, the target named is T1, SpoVG-6-His (Listeria monocytogenes 10403S) (UniProt Q8YAD5).
T1 sequence (looked up, limits assumed): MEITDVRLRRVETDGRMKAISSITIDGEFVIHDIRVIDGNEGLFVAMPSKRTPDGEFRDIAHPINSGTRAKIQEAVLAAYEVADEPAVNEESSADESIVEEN
Briefly: EMSA. The note with it: 300 mM NaCl, 5 mM DTT, plus 5 ug yeast tRNA, 1 ug BSA, 100 ng poly(dI-dC), 25-30 ul, recombinant protein, protein details: C-terminal 6xHis, label: 32P, single-stranded DNA.

Where [1] appears, read: affinity similar to cap41 and pgdA, 2 mM MgCl2, 20% glycerol.
Where [2] appears, read: affinity similar to cap41, 2 mM MgCl2, 20% glycerol.

pKd: −log10 of the molar value. For at least one entry, the source does not settle the construct or the ends of the probe. At least one verdict rests on a figure or table, not on a statement of the authors. Protein sequences can lack the tags named with them.

“GCCGAGCGGGTACGCCGTGCGGTATGGGCCCACGCTCCGTGGCGTGCCG [scrambled probe 2]”: the binding result under setting [1] is “binds”.
Same read-out and setting: next, “AATTCGATATATGATTTTGAAAATGAATTTCATAACTTTTAAATTGCGT [scrambled probe 1]”: “binds”.
In the case of “GAGTATAATTATTTTTAATTTACATATAAATAAAAAGGCGAAAATAATGCGGTTTAAAAGTAATTAAT [cap41 ssDNA]”, the pKd (commonly −log10 of the Kd, conventionally taken in molar units) (apparent Kd, 2 mM MgCl2, 20% glycerol) is 5.92.
On to “ATTTTTTAGCGCTATAAAAAAGCTATTTTTTAAAAAAGTACTTTTTTGA [scrambled probe 3]”, for which the binding result under setting [1] is “binds”.
Take “TTTGTTAAGAAATCGTTGGTCCTTTTTTCCTATTTTAGTACAAAAACTA [pgdA promoter 2]”: the binding result under setting [2] is listed as “binds”.
On the same count and under the same terms, with “ACAAAAACTAGAAACTTGCCTTTTTTCATGTATAATTGTTTTATAAGAA [pgdA promoter 1]” the entry was “binds”.
Regarding “CGGTAAAAGCTCCCACTTTATCCGTGTCTTTTTTGTGACATTTGTTAAG [pgdA promoter 3]”, the binding result under setting [2] was “binds”.
